Pooled drug test results. Numbers come from NIAID ChemDB, via PubChem.

All rows: toxicity to cultured cells; cell line: MT-4; endpoint: CC50

CCn: concentration that lowers growth or viability of the cells by n%.

smiles,read by,result
Cc1cccc(C)c1C1SCC(=O)N1c1cccc(Br)n1,-,268.3 µM
Cc1cc(-c2ccc(C#N)cc2)cc(Cl)c1Oc1nc(Nc2ccc(C#N)cc2)nc2ccsc12,MTT,142.7 µM
O=CC(OC(=O)c1cc(O)c(O)c(O)c1Oc1cc(C(=O)O)cc(O)c1O)C(OC(=O)c1cc(O)c(O)c(O)c1)C1OC(=O)c2cc(O)c(O)c(O)c2-c2c(cc(O)c(O)c2O)C(=O)OCC1O,-,29.1 µg/mL
Cc1[nH]c(=S)n(Nc2ccccc2Cl)c1-c1ccccc1,-,162 µM
CNc1nc(Nc2ccc(C#N)cc2F)nc(Oc2ccc3ccccc3c2Cl)n1,-,149 µM
O=C1C=CN([C@@H]2CS[C@@H](CO)O2)S(=O)(=O)N1,-,>100 µg/mL
N#Cc1ccc(Nc2nc(Oc3ccc(-c4ccc(C#N)cc4)c(F)c3F)c3sccc3n2)cc1,MTT,216.9 µM
O=CC(O)C(OC(=O)c1cc(O)c(O)c(O)c1)C1OC(=O)c2cc(O)c(O)c(O)c2-c2c(cc(O)c(O)c2O)C(=O)OCC1O,-,26.7 µg/mL
CCNc1nc(Nc2ccc(C#N)cc2F)nc(Oc2ccc3ccccc3c2Br)n1,-,>262 µM
NC1=NS(=O)(=O)N(Cc2ccccc2)c2ncn([C@@H]3CS[C@@H](CO)O3)c21,-,>100 µg/mL
COc1cc(Oc2nc(Nc3ccc(C#N)cc3)nc3ccsc23)ccc1-c1ccc(C#N)cc1,MTT,246.1 µM
CCc1c(Cc2cc(Cl)cc(Cl)c2)n(COC/C=C/c2ccccc2)c(=O)[nH]c1=O,MTT,34 µM
CNc1nc(Nc2ccc(C#N)cc2F)nc(Oc2ccc(C)cc2)n1,-,248 µM
COC(=O)/C=C1\S/C(=N/N=C/c2c(F)cccc2Cl)NC1=O,MTT,52.7 µM
Cc1cn([C@H]2C=C[C@@H](CO)O2)c(=O)n(CCOCCN2CCN(CCNC(=S)Nc3ccc(Br)cn3)CC2)c1=O,MTT,>100 µM
Cc1ccc(Nn2c(-c3ccccc3)c(C)[nH]c2=S)cc1Cl,-,44.29 µM
C#CCOCn1c(Cc2cc(Cl)cc(Cl)c2)c(CC)c(=O)[nH]c1=O,MTT,27 µM
COC(=O)c1[nH]c(=S)n(Nc2cccc(Cl)c2)c1C,-,48.8 µM
O=C[C@H](OC(=O)c1cc(O)c(O)c(O)c1)[C@@H](OC(=O)c1cc(O)c(O)c(O)c1)[C@@H]1OC(=O)c2cc(O)c(O)c(O)c2-c2c(cc(O)c(O)c2O)C(=O)OC[C@H]1O,-,22.9 µg/mL
C=CNc1nc(Nc2ccc(C#N)cc2F)nc(Oc2ccc3ccccc3c2Cl)n1,-,280 µM
O=C(OC[C@H]1O[C@@H](OC(=O)c2cc(O)c(O)c(O)c2)[C@H](OC(=O)c2cc(O)c(O)c(O)c2Oc2cc3c(c(O)c2O)-c2c(cc(O)c(O)c2O)C(=O)O[C@H]2[C@H](OC(=O)c4cc(O)c(O)c(O)c4)[C@@H](OC(=O)c4cc(O)c(O)c(O)c4)[C@H](OC(=O)c4cc(O)c(O)c(O)c4)O[C@@H]2COC3=O)[C@@H](OC(=O)c2cc(O)c(O)c(O)c2)[C@@H]1O)c1cc(O)c(O)c(O)c1,-,58.6 µg/mL
CCc1cc(NCc2nc3c(C)ccc(C)c3o2)c(=O)[nH]c1C,-,>0.06 µM
O=C(O[C@@H]1[C@@H](c2c(O)cc(O)c3c2O[C@H](c2ccc(O)c(O)c2)[C@H](OC(=O)c2cc(O)c(O)c(O)c2)C3)c2c(O)cc(O)cc2O[C@@H]1c1ccc(O)c(O)c1)c1cc(O)c(O)c(O)c1,-,52.5 µg/mL
NC1=NS(=O)(=O)N([C@@H]2CS[C@@H](CO)O2)C=C1,-,>100 µg/mL
CCOCn1c(Cc2cc(Cl)cc(Cl)c2)c(CC)c(=O)[nH]c1=O,MTT,36 µM
CCc1c(NC)nc(Nc2ccc(C#N)cc2)nc1Oc1ccc2ccccc2c1Br,MTT,65.14 µM
COc1cccc(F)c1C1SCC(=O)N1c1cc(C)cc(C)n1,-,≥209.4 µM
Cc1cc(C)cc(Nn2cnc(C)c2-c2ccccc2)c1,-,20.44 µM
NC(=O)CC[C@H](NC(=O)COc1cccc(NC(=O)[C@@H](N)Cc2ccc(O)cc2)c1)C(=O)N[C@@H](Cc1c[nH]c2ccccc12)C(=O)N[C@@H](CC(=O)O)C(=O)N[C@@H](Cc1ccccc1)C(=O)NCC(=O)O,-,≥1000 µg/mL
CCNc1nc(Nc2ccc(C#N)cc2F)nc(Oc2ccc(C)cc2)n1,-,243 µM
Cc1cc(C#N)cc(C)c1Oc1nc(NC2CCN(S(=O)(=O)c3ccc4oc(=O)ccc4c3)CC2)nc2ccsc12,MTT,56.92 µM
O=CC(OC(=O)c1cc(O)c(O)c(O)c1Oc1cc2c(c(O)c1O)-c1c(cc(O)c(O)c1O)C(=O)COC1OC(OC(=O)c3cc(O)c(O)c(O)c3Oc3cc4c(=O)oc5c(O)c(O)cc6c(=O)oc(c3O)c4c56)C(OC(=O)c3cc(O)c(O)c(O)c3)C(OC(=O)c3cc(O)c(O)c(O)c3)C1OC2=O)C(OC(=O)c1cc(O)c(O)c(O)c1)C(O)C(O)CO,-,52.8 µg/mL
COc1cccc(F)c1C1SCC(=O)N1c1cccc(C)n1,-,165.9 µM
Cc1ncn(Nc2cccc(Cl)c2)c1-c1cccc(C#N)c1,-,36.79 µM
COC(=O)/C=C1\S/C(=N/N=C/c2cccc(Br)c2)NC1=O,MTT,11.15 µM
COc1cccc(Nn2cnc(C)c2-c2ccccc2)c1,-,34.44 µM
CCc1c(Cc2cc(Cl)cc(Cl)c2)n(COC2Cc3ccccc3C2)c(=O)[nH]c1=O,MTT,30 µM
Cc1cn([C@@H]2OC[C@H](OCCP(=O)(O)O)[C@H]2O)c(=O)[nH]c1=O,-,>250 µM
O=c1ccn([C@H]2C=C[C@@H](CO)O2)c(=O)n1CC#CCN1CCN(CCNC(=S)Nc2ccc(Br)cn2)CC1,MTT,>100 µM
CCc1cc(CCc2nc3ccccc3o2)c(=O)[nH]c1C,-,>0.06 µM
Cc1cc(C#N)cc(C)c1Oc1nc(NC2CCN(S(C)(=O)=O)CC2)nc2ccsc12,MTT,22.21 µM
CCc1c(Cc2cc(Cl)cc(Cl)c2)n(COCC=C(C)C)c(=O)[nH]c1=O,MTT,35 µM
N#Cc1ccc(Nc2nccc(Oc3ccc4ccccc4c3)n2)cc1,MTT,369 µM
CNc1nc(Nc2ccc(C#N)cc2F)nc(Oc2ccc3ccccc3c2)n1,-,236 µM
Cc1cc(C#N)cc(C)c1Oc1nc(Nc2ccc(NS(=O)(=O)c3ccc4ccccc4c3)cc2)nc2ccsc12,MTT,>216.3 µM
S=C(NCCN1CCNCC1)Nc1ccc(Br)cn1,MTT,>100 µM
COC(=O)/C=C1\S/C(=N/N=C/c2ccc(OCc3ccccc3)cc2)NC1=O,MTT,97.45 µM
Cc1cc(C#N)cc(C)c1Oc1nc(Nc2ccc(NS(=O)(=O)c3ccc(-c4ccccc4)cc3)cc2)nc2ccsc12,MTT,>207 µM
CCc1c(NC)nc(Nc2ccc(C#N)cc2)nc1Oc1ccc2cc(C#N)ccc2c1,MTT,>59.52 µM
O=c1ccn([C@H]2C=C[C@@H](CO)O2)c(=O)n1C/C=C/CN1CCN(CCNC(=S)Nc2ccc(Br)cn2)CC1,MTT,>100 µM
Cc1cc(C)nc(N2C(=O)CSC2c2c(F)cccc2F)c1,-,64.1 µM
Nc1nc2c(ncn2CCC(CO)CO)c(=O)[nH]1,MTT,>493 µM
Cc1cccc(N2C(=O)CSC2c2c(F)cccc2F)c1,-,207.8 µM
Cc1ncn(Nc2ccccc2)c1C,-,351 µM
Cc1cc(C#N)cc(C)c1Oc1nc(NC2CCN(S(=O)(=O)c3ccccc3)CC2)nc2ccsc12,MTT,6.19 µM
Cc1cc(Oc2nc(Nc3ccc(C#N)cc3)nc3ccsc23)ccc1-c1ccc(C#N)cc1,MTT,187.3 µM
CCc1c(Cl)nc(Nc2ccc(C#N)cc2)nc1Oc1ccc2cc(Br)ccc2c1Br,MTT,224 µM
Cc1cc(C#N)cc(C)c1Oc1nc(Nc2ccc(NS(=O)(=O)c3ccc(C#N)cc3)cc2)nc2ccsc12,MTT,46.73 µM
CC1=CN([C@@H]2CS[C@@H](CO)O2)S(=O)(=O)NC1=O,-,>100 µg/mL
Cc1cn([C@H]2C=C[C@@H](CO)O2)c(=O)[nH]c1=O,-,4 µM
Cc1cc2ccccc2cc1Oc1ccnc(Nc2ccc(C#N)cc2)n1,MTT,>70.94 µM
Cc1cc(C#N)cc(C)c1Oc1nc(NC2CCN(S(=O)(=O)c3ccc(C#N)cc3)CC2)nc2ccsc12,MTT,20.98 µM
CNc1nc(Nc2ccc(C#N)cc2)nc(Oc2ccc3ccccc3c2)c1C(C)C,MTT,25.15 µM
COC(=O)/C=C1\S/C(=N/N=C/C2CCCCC2)NC1=O,MTT,57.53 µM
COc1cccc(F)c1C1SCC(=O)N1c1nccc(C)n1,-,317.4 µM
Nc1ncnc2c1ncn2[C@@H]1OC[C@H](OCCP(=O)(O)O)[C@H]1O,-,>250 µM
Cc1cc(C#N)cc(C)c1Oc1nc(NC2CCN(S(=O)(=O)N3CCOCC3)CC2)nc2ccsc12,MTT,>236.4 µM
N#Cc1ccc(Nc2nc(Oc3ccc(-c4ccc(C#N)cc4)c(C#N)c3)c3sccc3n2)cc1,MTT,192.1 µM
COc1cccc(OC)c1C1SCC(=O)N1c1cccc(C)n1,-,241.5 µM

The first 7 rows once more:

smiles,read by,result
Cc1cccc(C)c1C1SCC(=O)N1c1cccc(Br)n1,-,268.3 µM
Cc1cc(-c2ccc(C#N)cc2)cc(Cl)c1Oc1nc(Nc2ccc(C#N)cc2)nc2ccsc12,MTT,142.7 µM
O=CC(OC(=O)c1cc(O)c(O)c(O)c1Oc1cc(C(=O)O)cc(O)c1O)C(OC(=O)c1cc(O)c(O)c(O)c1)C1OC(=O)c2cc(O)c(O)c(O)c2-c2c(cc(O)c(O)c2O)C(=O)OCC1O,-,29.1 µg/mL
Cc1[nH]c(=S)n(Nc2ccccc2Cl)c1-c1ccccc1,-,162 µM
CNc1nc(Nc2ccc(C#N)cc2F)nc(Oc2ccc3ccccc3c2Cl)n1,-,149 µM
O=C1C=CN([C@@H]2CS[C@@H](CO)O2)S(=O)(=O)N1,-,>100 µg/mL
N#Cc1ccc(Nc2nc(Oc3ccc(-c4ccc(C#N)cc4)c(F)c3F)c3sccc3n2)cc1,MTT,216.9 µM

Blank or dashed fields: not listed here. Neighbouring rows are from separate reports.